Data taken from PMC12090729.

Assay: syncytia formation, GFP+ area, co-transfected HEK293T
Details: glycan lost; control: WT hACE2

In the case of “hACE2 (angiotensin-converting enzyme 2): N103A”, the “other: cell-cell fusion” value is reported as “decreases”.

In the case of “hACE2 (angiotensin-converting enzyme 2): N322A”, the “other: cell-cell fusion” value is reported as “increases”.
